For the experiment, the target named is ErbB4 (Homo sapiens, UniProt Q15303). The note with it: 1 µM.

Chains of the proteins cited; added tags and fusions are not shown. Residues count along the entry.
UniProt Q15303, 26-1308: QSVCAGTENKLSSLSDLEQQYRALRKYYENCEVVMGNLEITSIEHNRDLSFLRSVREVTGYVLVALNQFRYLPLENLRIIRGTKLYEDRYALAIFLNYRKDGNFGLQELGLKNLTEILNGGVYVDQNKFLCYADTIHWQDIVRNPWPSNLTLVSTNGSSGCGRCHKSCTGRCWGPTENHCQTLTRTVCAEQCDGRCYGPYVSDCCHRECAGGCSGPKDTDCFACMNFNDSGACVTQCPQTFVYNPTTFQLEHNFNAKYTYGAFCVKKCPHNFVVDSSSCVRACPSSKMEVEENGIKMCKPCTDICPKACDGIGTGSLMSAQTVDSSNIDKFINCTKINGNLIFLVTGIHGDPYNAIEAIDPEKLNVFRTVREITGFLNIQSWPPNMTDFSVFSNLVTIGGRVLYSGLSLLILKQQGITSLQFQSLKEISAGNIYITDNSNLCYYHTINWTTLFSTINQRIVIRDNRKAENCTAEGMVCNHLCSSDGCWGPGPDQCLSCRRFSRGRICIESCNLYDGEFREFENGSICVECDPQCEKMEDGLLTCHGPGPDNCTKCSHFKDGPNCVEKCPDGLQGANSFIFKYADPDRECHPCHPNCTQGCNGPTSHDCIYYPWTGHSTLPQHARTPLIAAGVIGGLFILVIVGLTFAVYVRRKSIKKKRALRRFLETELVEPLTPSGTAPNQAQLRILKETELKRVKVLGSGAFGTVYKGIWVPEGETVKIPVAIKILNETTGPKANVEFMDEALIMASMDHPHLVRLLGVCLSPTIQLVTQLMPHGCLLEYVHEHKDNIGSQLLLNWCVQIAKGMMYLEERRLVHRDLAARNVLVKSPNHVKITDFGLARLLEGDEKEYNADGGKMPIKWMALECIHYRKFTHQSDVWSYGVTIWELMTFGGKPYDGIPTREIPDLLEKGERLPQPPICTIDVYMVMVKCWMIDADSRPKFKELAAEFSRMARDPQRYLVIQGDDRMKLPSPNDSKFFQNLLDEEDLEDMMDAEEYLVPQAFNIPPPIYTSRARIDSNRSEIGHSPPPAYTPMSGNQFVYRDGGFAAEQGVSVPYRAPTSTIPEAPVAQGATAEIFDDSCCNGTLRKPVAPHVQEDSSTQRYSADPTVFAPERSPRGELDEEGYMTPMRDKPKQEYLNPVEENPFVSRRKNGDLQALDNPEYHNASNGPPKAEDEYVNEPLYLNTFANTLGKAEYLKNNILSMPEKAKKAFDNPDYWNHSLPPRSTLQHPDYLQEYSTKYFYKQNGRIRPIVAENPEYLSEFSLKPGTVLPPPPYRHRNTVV

Take `CN(C)C/C=C/C(=O)Nc1cc2c(Nc3ccc(F)c(Cl)c3)ncnc2cc1O[C@H]1CCOC1` [BIBW2992]: the “Inhibition Rate(%) / ErbB4” value was 84.2.

For the origin of these results see paper PMC7287781 (Molecules, 2020).
